System: A549
Assay: In vitro toxicity (MTT), A549
Assay type: cell-based, human
Conditions: ratio of IC50 against mammalian cell line and MIC80 against C. neoformans
Protocol: The murine macrophage cell line J774 and human cancer cell lines A549 and HepG2 were maintained in DMEM containing 10% fetal bovine serum (FBS) and 1% penicillin-streptomycin. At passage 7, 10^5 cells/well in DMEM containing 10% FBS were transferred into 96-well plates and cultured for 14 h for the cells to adhere to the wells. The compounds were added to the cells at concentrations ranging from 0.03 to 128 μg/ml. The wells without the compound served as controls. […] After 24 or 48 h, the supernatant was removed and 50 μl of 5-mg/ml 3-(4,5-dimethylthiazol-2-yl)-2,5-diphenyltetrazoliumbromide (MTT) solution in phosphate-buffered saline (PBS) was added to each well. The plates were incubated for an additional 4 h. The formazan crystal formed inside the cell was dissolved by adding 50 μl of dimethyl sulfoxide (DMSO). The optical density was measured at 570 nm.

Compound	SI of A549 or HepG2
O=C(N/N=C/c1cc(Br)ccc1O)c1cccc(Br)c1 [D2]	64
O=C(N/N=C/c1cc(Br)ccc1O)c1cc(Br)cc(Br)c1O [D17]	32
